From patent US20230218743A1 (IMMUNITYBIO, published 2023)

Molecular target: T1, SARS-CoV-2 Spike receptor binding domain, wild-type (SARS-CoV-2, UniProt P0DTC2 319-541)
T1 construct: domain: RBD
Test: Octet, IgG1 on AHC biosensor

B1: N-612-004 (antibody, V domains shown)
VH: EVQLVESGGGLVQPGGSLRLSCAASGFTFSSYYMHWVRQAPGKGLEWVSAISGSGGYTYYADSVKGRFTISRDNSKNTLYLQMNSLRAEDTAVYYCARDRDHAYDWGFDVWGQGTLVTVSS
VL: DIQMTQSPSSLSASVGDRVTITCQASQDISNYLNWYQQKPGKAPKLLIYDASNLETGVPSRFSGSGSGTDFTFTISSLQPEDIATYYCQQWADWPLTFGQGTKVEIK
- binding result: no binding (tested: 2x dilution series starting at 100 nM)
